# Columns and labels:
# Format in all cases: cell-based
# [1] = tested on: IFO 0974 Kuraishia capsulata; assay: Test-tube culture with ergosterol and squalene synthesis inhibitor SQAD, with or without glucose and soybean oil (Example 8)
# [2] = tested on: IFO 1892 Saccharomyces kluyeri; assay: as above
# [3] = tested on: Saccharomyces cerevisiae strain ATCC 64031; assay: Effect of tocopherol on prenyl alcohol secretory production, GC/MS (Example 5, Table 1)
# [4] = tested on: IFO 3762 Staphylococcus epidermidis; assay: Control culture of bacterial strain in KB medium (Example 11, Table 14); details: treated with phosphatase
# [5] = tested on: IFO 3032 Baccilus amyloliquefaciens; assay: as above; details: treated with phosphatase
# [6] = tested on: IFO 0622 Candida glabrata; assay: Test-tube culture with ergosterol and squalene synthesis inhibitor SQAD, with or without glucose and soybean oil (Example 8)
# [7] = tested on: K 4104 Saccharomyces cerevisiae; assay: Test-tube culture in YM or YM + 5% glucose + 1% soybean oil (Example 7)
# [8] = tested on: IFO 0948 Komagataella pastoris; assay: Test-tube culture with ergosterol and squalene synthesis inhibitor SQAD, with or without glucose and soybean oil (Example 8)
# [9] = tested on: IFO 0215 Saccharomyces unisporus; assay: as above
# [10] = tested on: IFO 0717 Yarrowia lopolytica; assay: as above
# [11] = YM + 4 mg/L ergosterol, SQAD 0 mg/L, 3 days
# [12] = YM + 4 mg/L ergosterol, SQAD 0 mg/L, 7 days
# [13] = YM + 4 mg/L ergosterol, SQAD 1 mg/L, 3 days
# [14] = YM + 4 mg/L ergosterol, SQAD 1 mg/L, 7 days
# [15] = YM + 4 mg/L ergosterol, SQAD 20 mg/L, 3 days
# [16] = YM + 4 mg/L ergosterol, SQAD 20 mg/L, 7 days
# [17] = YM + 5% glucose + 1% soybean oil + 4 mg/L ergosterol, SQAD 0 mg/L, 3 days
# [18] = YM + 5% glucose + 1% soybean oil + 4 mg/L ergosterol, SQAD 0 mg/L, 7 days
# [19] = YM + 5% glucose + 1% soybean oil + 4 mg/L ergosterol, SQAD 1 mg/L, 3 days
# [20] = YM + 5% glucose + 1% soybean oil + 4 mg/L ergosterol, SQAD 1 mg/L, 7 days
# [21] = YM + 5% glucose + 1% soybean oil + 4 mg/L ergosterol, SQAD 20 mg/L, 3 days
# [22] = YM + 5% glucose + 1% soybean oil + 4 mg/L ergosterol, SQAD 20 mg/L, 7 days
# [23] = YM + 5% glucose + 1% soybean oil, 3 days
# [24] = YM + 5% glucose + 1% soybean oil, 6 days
smiles,measurement,setting,value
"CC(C)=CCCC(C)=CCCC(C)=CCO [FOH, farnesol]",Cell fraction,[1]; [11],0.0 μg/L of culture solution
same,Supernatant fraction,[1]; [11],0.0 μg/L of culture solution
same,Cell fraction,[1]; [12],0.0 μg/L of culture solution
same,Supernatant fraction,[1]; [12],0.0 μg/L of culture solution
same,Cell fraction,[1]; [13],0.0 μg/L of culture solution
same,Supernatant fraction,[1]; [13],0.0 μg/L of culture solution
same,Cell fraction,[1]; [14],0.0 μg/L of culture solution
same,Supernatant fraction,[1]; [14],0.0 μg/L of culture solution
same,Cell fraction,[1]; [15],0.0 μg/L of culture solution
same,Supernatant fraction,[1]; [15],0.0 μg/L of culture solution
same,Cell fraction,[1]; [16],0.0 μg/L of culture solution
same,Supernatant fraction,[1]; [16],0.0 μg/L of culture solution
same,Cell fraction,[1]; [17],3.3 μg/L of culture solution
same,Supernatant fraction,[1]; [17],24.8 μg/L of culture solution
same,Cell fraction,[1]; [18],3.2 μg/L of culture solution
same,Supernatant fraction,[1]; [18],167.5 μg/L of culture solution
same,Cell fraction,[1]; [19],16.1 μg/L of culture solution
same,Supernatant fraction,[1]; [19],1061.9 μg/L of culture solution
same,Cell fraction,[1]; [20],24.8 μg/L of culture solution
same,Supernatant fraction,[1]; [20],713.7 μg/L of culture solution
same,Cell fraction,[1]; [21],149.2 μg/L of culture solution
same,Supernatant fraction,[1]; [21],2022.7 μg/L of culture solution
same,Cell fraction,[1]; [22],362.1 μg/L of culture solution
same,Supernatant fraction,[1]; [22],8268.5 μg/L of culture solution
same,Cell fraction,[2]; [11],0.0 μg/L of culture solution
same,Supernatant fraction,[2]; [11],0.0 μg/L of culture solution
same,Cell fraction,[2]; [12],0.0 μg/L of culture solution
same,Supernatant fraction,[2]; [12],0.0 μg/L of culture solution
same,Cell fraction,[2]; [13],0.0 μg/L of culture solution
same,Supernatant fraction,[2]; [13],0.0 μg/L of culture solution
same,Cell fraction,[2]; [14],0.0 μg/L of culture solution
same,Supernatant fraction,[2]; [14],0.0 μg/L of culture solution
same,Cell fraction,[2]; [15],0.0 μg/L of culture solution
same,Supernatant fraction,[2]; [15],0.0 μg/L of culture solution
same,Cell fraction,[2]; [16],0.0 μg/L of culture solution
same,Supernatant fraction,[2]; [16],0.0 μg/L of culture solution
same,Cell fraction,[2]; [17],3.7 μg/L of culture solution
same,Supernatant fraction,[2]; [17],70.4 μg/L of culture solution
same,Cell fraction,[2]; [18],0.0 μg/L of culture solution
same,Supernatant fraction,[2]; [18],158.5 μg/L of culture solution
same,Cell fraction,[2]; [19],2.3 μg/L of culture solution
same,Supernatant fraction,[2]; [19],51.4 μg/L of culture solution
same,Cell fraction,[2]; [20],5.0 μg/L of culture solution
same,Supernatant fraction,[2]; [20],188.3 μg/L of culture solution
same,Cell fraction,[2]; [21],16.5 μg/L of culture solution
same,Supernatant fraction,[2]; [21],62.9 μg/L of culture solution
same,Cell fraction,[2]; [22],227.8 μg/L of culture solution
same,Supernatant fraction,[2]; [22],935.3 μg/L of culture solution
same,Cell fraction,[3]; Tocopherol 0 μM,7034 μg/L of culture solution
same,Supernatant fraction,[3]; Tocopherol 0 μM,3102 μg/L of culture solution
same,Cell fraction,[3]; Tocopherol 20 μM,5469 μg/L of culture solution
same,Supernatant fraction,[3]; Tocopherol 20 μM,3819 μg/L of culture solution
same,Cell fraction,[3]; Tocopherol 200 μM,2695 μg/L of culture solution
same,Supernatant fraction,[3]; Tocopherol 200 μM,6741 μg/L of culture solution
same,Cell fraction,[4],0.0 μg/L of culture solution
same,Supernatant fraction,[4],6.1 μg/L of culture solution
same,Cell fraction,[5],0.0 μg/L of culture solution
same,Supernatant fraction,[5],4.1 μg/L of culture solution
same,Cell fraction,[6]; [11],1.9 μg/L of culture solution
same,Supernatant fraction,[6]; [11],3.1 μg/L of culture solution
same,Cell fraction,[6]; [12],0.0 μg/L of culture solution
same,Supernatant fraction,[6]; [12],0.0 μg/L of culture solution
same,Cell fraction,[6]; [13],1.4 μg/L of culture solution
same,Supernatant fraction,[6]; [13],3.5 μg/L of culture solution
same,Cell fraction,[6]; [14],0.0 μg/L of culture solution
same,Supernatant fraction,[6]; [14],0.0 μg/L of culture solution
same,Cell fraction,[6]; [15],212.0 μg/L of culture solution
same,Supernatant fraction,[6]; [15],243.5 μg/L of culture solution
same,Cell fraction,[6]; [16],5.5 μg/L of culture solution
same,Supernatant fraction,[6]; [16],0.0 μg/L of culture solution
same,Cell fraction,[6]; [17],28.8 μg/L of culture solution
same,Supernatant fraction,[6]; [17],106.1 μg/L of culture solution
same,Cell fraction,[6]; [18],43.7 μg/L of culture solution
same,Supernatant fraction,[6]; [18],378.3 μg/L of culture solution
same,Cell fraction,[6]; [19],9.7 μg/L of culture solution
same,Supernatant fraction,[6]; [19],149.2 μg/L of culture solution
same,Cell fraction,[6]; [20],133.3 μg/L of culture solution
same,Supernatant fraction,[6]; [20],530.0 μg/L of culture solution
same,Cell fraction,[6]; [21],331.6 μg/L of culture solution
same,Supernatant fraction,[6]; [21],12186.9 μg/L of culture solution
same,Cell fraction,[6]; [22],2750.6 μg/L of culture solution
same,Supernatant fraction,[6]; [22],22147.1 μg/L of culture solution
same,Cell fraction,[7]; [23],241.1 μg/L of culture solution
same,Supernatant fraction,[7]; [23],281.0 μg/L of culture solution
same,Cell fraction,[7]; [24],155.3 μg/L of culture solution
same,Supernatant fraction,[7]; [24],338.2 μg/L of culture solution
same,Cell fraction,[7]; YM medium (Difco),15.8 μg/L of culture solution
same,Supernatant fraction,[7]; YM medium (Difco),0.0 μg/L of culture solution
same,Cell fraction,[8]; [11],0.0 μg/L of culture solution
same,Supernatant fraction,[8]; [11],0.0 μg/L of culture solution
same,Cell fraction,[8]; [12],0.0 μg/L of culture solution
same,Supernatant fraction,[8]; [12],0.0 μg/L of culture solution
same,Cell fraction,[8]; [13],0.0 μg/L of culture solution
same,Supernatant fraction,[8]; [13],0.0 μg/L of culture solution
same,Cell fraction,[8]; [14],0.0 μg/L of culture solution
same,Supernatant fraction,[8]; [14],0.0 μg/L of culture solution
same,Cell fraction,[8]; [15],3.4 μg/L of culture solution
same,Supernatant fraction,[8]; [15],3.4 μg/L of culture solution
same,Cell fraction,[8]; [16],0.0 μg/L of culture solution
same,Supernatant fraction,[8]; [16],0.0 μg/L of culture solution
same,Cell fraction,[8]; [17],13.8 μg/L of culture solution
same,Supernatant fraction,[8]; [17],73.5 μg/L of culture solution
same,Cell fraction,[8]; [18],4.3 μg/L of culture solution
same,Supernatant fraction,[8]; [18],101.6 μg/L of culture solution
same,Cell fraction,[8]; [19],22.9 μg/L of culture solution
same,Supernatant fraction,[8]; [19],82.2 μg/L of culture solution
same,Cell fraction,[8]; [20],53.4 μg/L of culture solution
same,Supernatant fraction,[8]; [20],569.8 μg/L of culture solution
same,Cell fraction,[8]; [21],608.4 μg/L of culture solution
same,Supernatant fraction,[8]; [21],2956.2 μg/L of culture solution
same,Cell fraction,[8]; [22],537.5 μg/L of culture solution
same,Supernatant fraction,[8]; [22],5513.3 μg/L of culture solution
same,Cell fraction,[9]; [11],0.0 μg/L of culture solution
same,Supernatant fraction,[9]; [11],0.0 μg/L of culture solution
same,Cell fraction,[9]; [12],0.0 μg/L of culture solution
same,Supernatant fraction,[9]; [12],0.0 μg/L of culture solution
same,Cell fraction,[9]; [13],0.0 μg/L of culture solution
same,Supernatant fraction,[9]; [13],0.0 μg/L of culture solution
same,Cell fraction,[9]; [14],0.0 μg/L of culture solution
same,Supernatant fraction,[9]; [14],0.0 μg/L of culture solution
same,Cell fraction,[9]; [15],0.0 μg/L of culture solution
same,Supernatant fraction,[9]; [15],3.2 μg/L of culture solution
same,Cell fraction,[9]; [16],0.0 μg/L of culture solution
same,Supernatant fraction,[9]; [16],0.0 μg/L of culture solution
same,Cell fraction,[9]; [17],0.0 μg/L of culture solution
same,Supernatant fraction,[9]; [17],8.2 μg/L of culture solution
same,Cell fraction,[9]; [18],0.0 μg/L of culture solution
same,Supernatant fraction,[9]; [18],14.8 μg/L of culture solution
same,Cell fraction,[9]; [19],0.0 μg/L of culture solution
same,Supernatant fraction,[9]; [19],5.2 μg/L of culture solution
same,Cell fraction,[9]; [20],0.0 μg/L of culture solution
same,Supernatant fraction,[9]; [20],17.5 μg/L of culture solution
same,Cell fraction,[9]; [21],16.9 μg/L of culture solution
same,Supernatant fraction,[9]; [21],68.4 μg/L of culture solution
same,Cell fraction,[9]; [22],255.6 μg/L of culture solution
same,Supernatant fraction,[9]; [22],433.7 μg/L of culture solution
same,Cell fraction,[10]; [11],0.0 μg/L of culture solution
same,Supernatant fraction,[10]; [11],0.0 μg/L of culture solution
same,Cell fraction,[10]; [12],0.0 μg/L of culture solution
same,Supernatant fraction,[10]; [12],0.0 μg/L of culture solution
same,Cell fraction,[10]; [13],0.0 μg/L of culture solution
same,Supernatant fraction,[10]; [13],1.3 μg/L of culture solution
same,Cell fraction,[10]; [14],1.5 μg/L of culture solution
same,Supernatant fraction,[10]; [14],2.1 μg/L of culture solution
same,Cell fraction,[10]; [15],39.7 μg/L of culture solution
same,Supernatant fraction,[10]; [15],39.7 μg/L of culture solution
same,Cell fraction,[10]; [16],10.6 μg/L of culture solution
same,Supernatant fraction,[10]; [16],10.6 μg/L of culture solution
same,Cell fraction,[10]; [17],6.7 μg/L of culture solution
same,Supernatant fraction,[10]; [17],8.7 μg/L of culture solution
same,Cell fraction,[10]; [18],0.0 μg/L of culture solution
same,Supernatant fraction,[10]; [18],95.3 μg/L of culture solution
same,Cell fraction,[10]; [19],165.3 μg/L of culture solution
same,Supernatant fraction,[10]; [19],100.1 μg/L of culture solution
same,Cell fraction,[10]; [20],0.0 μg/L of culture solution
same,Supernatant fraction,[10]; [20],405.4 μg/L of culture solution
same,Cell fraction,[10]; [21],882.1 μg/L of culture solution
same,Supernatant fraction,[10]; [21],983.3 μg/L of culture solution
same,Cell fraction,[10]; [22],1025.1 μg/L of culture solution
same,Supernatant fraction,[10]; [22],6812.9 μg/L of culture solution
